# Measurements from ChEMBL document CHEMBL4513160, “CO-ADD screening of MMV (CH) - Small Polar Library”.
# Legend:
# [1] = tested on: Pseudomonas aeruginosa; assay: Antibacterial activity against Pseudomonas aeruginosa PAO397 [PAO1 d(mexAB-oprM) d(mexCD-oprJ) d(mexEF-oprN) d(mexJKL) d(mexXY) d(opmH)] (CO-ADD:GN_211); MIC in CAMBH media using NBS plates, by OD(600); type: functional; conditions: Concentration 300.0 ug.mL-1
# [2] = tested on: Acinetobacter baumannii; assay: Antibacterial activity against Acinetobacter baumannii ATCC 19606 (CO-ADD:GN_034); MIC in CAMBH media using NBS plates, by OD600; conditions: Concentration 300.0 ug.mL-1
compound,measurement,setting,value
NC(CF)c1ccc(F)cc1 (configuration not stated),inhibition,[1],2.83%
same,inhibition,[2],7.81%
